Each structure is given as a SMILES string. The list shows a part of the results, in another mix than the full data. Activity calls are given as the source filed them. No stated cut-off is given here; in the data, active means inhibition above about 50%; inactive means the rest.

As usually defined, the inhibition is the percentage by which the read-out fell short of the control.

The target in this experiment is Gag-Pol polyprotein (Human immunodeficiency virus type 1 group M subtype B (isolate HXB2)) (UniProt P04585). The experiment can be described thus: RNase H inhibition, HIV 1 Gag Pol polyprotein, FRET biochemical assay, screening (AID 372). Conditions: HIV-1 RT RNase H, FRET RNA/DNA substrate fluorescence; at 10 µM; active compounds read high.
Take `CP(=O)(Oc1ccccc1F)Oc1ccccc1F`: the inhibition is inactive: 13%.

Take `O=[N+]([O-])c1nonc1COc1nonc1[N+](=O)[O-]`: the inhibition is inactive: 3%.

For the molecule `CCOP(C)(=S)SCC(=O)NC(C)C(=O)O` (centres undefined), the inhibition was inactive: 1%.

For the molecule `CN(C)CCOC(=O)C(O)(c1ccccc1)c1ccccc1`, the inhibition was inactive: 4%.

On to `CP(=O)(Nc1cccc(Br)c1)Oc1cccc(Cl)c1Cl` (centres undefined), for which the inhibition is inactive: 7%.

As to `CCCCOP(=O)(CCC)OCCCC`, the inhibition was inactive: 0%.

As for `Cc1cc(C)cc(OP(C)(=O)Nc2ccc(F)cc2)c1` (centres undefined), the inhibition is inactive: 9%.

`CP(=O)(Oc1ccccc1)Oc1ccccc1`: the inhibition is inactive: 0%.

With `CP(=O)(Oc1ccc(Cl)cc1)Oc1ccc(Cl)cc1`, the inhibition was inactive: 6%.

For `O=[N+]([O-])[N-][n+]1cnn(CCn2c[n+]([N-][N+](=O)[O-])cn2)c1`, the inhibition was inactive: 1%.

With `CP(=O)(Nc1ccc(Br)cc1)Oc1ccc(Cl)cc1` (centres undefined), the inhibition is inactive: 9%.

In the case of `Cc1cc(C)cc(OP(C)(=O)Nc2ccc(Cl)cc2)c1` (centres undefined), the inhibition was inactive: 16%.

With `COc1ccc(OP(C)(=O)Nc2ccccc2)cc1` (centres undefined), the inhibition is inactive: 5%.

In the case of `CP(=O)(Oc1ccc(F)cc1)Oc1ccc(F)cc1`, the inhibition is inactive: 9%.

With `Cc1ccc(NP(C)(=O)Oc2ccc(Cl)cc2)cc1` (centres undefined), the inhibition is inactive: 5%.

For the molecule `CCc1ccc(OP(C)(=O)O)cc1`, the inhibition is inactive: 1%.

Regarding `CCOP(C)(=S)SCN(CC(=O)O)C(=O)OCc1ccccc1` (centres undefined), the inhibition was inactive: 0%.

`O=C(OCCCN1CCOCC1)C(O)(c1ccc(Br)cc1)c1ccc(Br)cc1`: the inhibition was inactive: 8%.

Turning to `CC(C)c1ccc(OP(C)(=O)O)cc1`, the inhibition is inactive: 5%.

The values are drawn from PubChem BioAssay AID372 (MTDP, 2006).
